# Experimental data: PMC2829057
# Assays:
# [1] = target: PfSIP2-N-HIS_A (Plasmodium falciparum 3D7) (UniProt C6KSN9); experiment: competition with a labelled probe; conditions: details not given; protein in a lysate after overexpression; protein details: C-terminal 6xHis; flanks not given
# [2] = target: PfSIP2-N-Ty (Plasmodium falciparum 3D7) (UniProt C6KSN9); experiment: pull-down; conditions: affinity binding buffer: 20 mM HEPES pH 7.9, 100 mM KCl, 1 mM EDTA, 2 mM DTT, 2 mM MgCl2, 0.025 mM ZnCl2; nonspecific competitor salmon sperm DNA; protein in a lysate after overexpression; protein details: C-terminal 2xTy; label: 5' biotin on strand 1; letters put together from the description
# [3] = target: PfSIP2-N-Ty (Plasmodium falciparum 3D7) (UniProt W7K889); experiment: pull-down; conditions: 5' biotin on strand 1; protein in a lysate after overexpression; protein details: C-terminal 2xTy; label: biotin
# [4] = target: PfSIP2-N-HIS_B (Plasmodium falciparum 3D7) (UniProt C6KSN9); experiment: EMSA; conditions: details not given; protein in a lysate after overexpression; protein details: C-terminal 6xHis; flanks not given
# [5] = target: SIP2-AP2_12 (Plasmodium falciparum 3D7) (UniProt C6KSN9); experiment: EMSA; conditions: details not given; protein in a lysate after overexpression; protein details: N-terminal GST; flanks not given
Sequence,binding result [1],other results
AAGGTGCACACTGGTGCATT (double strand) [rhoph3],binds,–
GACTTTATTGTGCATAGTGGTGCGATATAG (double strand) [SPE2 pull-down oligo],–,binding result [2]: binds; binding result [3]: binds
ATTGTGCATAGTCGTGCGAA (double strand) [M2.C1],binds,–
ATTCTGCATAGTGGTGCGAA (double strand) [M1.C2],binds,–
ATTGTGCATAGTGGTGCGAA (double strand) [SPE2],binds,binding result [4]: binds; binding result [5]: binds

# Where cells or extracts were used, other partners may take part. For some assays here: Construct, isoform or probe ends are uncertain for at least one entry.
